Measured values from several laboratories, pooled; numbers as filed in NIAID ChemDB.

All rows: cytotoxicity tests; endpoint: CC50

CCn: concentration that lowers growth or viability of the cells by n%. An empty or dashed field is not shown. Conditions beyond the fields shown may differ between rows.

smiles	cell line	method	result
Cc1cc(CCCCCCCOC23CC4CC(CC(C4)C2)C3)on1	WIS HELA	crystal violet	50 µg/mL
CS(=O)(=O)C1(c2ncc(C(=O)NCCC3(c4ncc(-c5ccc(Cl)cc5)s4)CCC3)o2)CC1	Primary human hepatocytes	absorbance	89 µM
CCc1ccc(CCN=C2NC(=O)/C(=C/c3ccc(-c4ccc(C(=O)O)c(O)c4)o3)S2)cc1	Ramos	MTT	37 µM
CS(=O)(=O)C1(c2ccc(C(=O)NC34CC(c5nnn(-c6ccc(Cl)cc6)n5)(C3)C4)o2)CC1	Primary human hepatocytes	absorbance	12.2 µM
Cc1cc(OCCCCCCc2sncc2C)c2ccccc2n1	WIS HELA	crystal violet	10 µg/mL
C=C(C)[C@@H]1CCC2(C(=O)OC)CC[C@]3(C)C(CCC4[C@@](C)(CC#N)C(C(C)(C)C(=O)NCC(=O)OCC)CC[C@]43C)C12	RD TE32	MTT	70.5 µM
Cc1cccc(NC(=O)NCCc2ccc3c(n2)NCCC3)n1	PBMC	-	7.4 µM
O=C1/C(=C/c2ccc(-c3cc(C(F)(F)F)ccc3Cl)o2)SC(=S)N1Cc1ccc(F)cc1	HEK 293	MTT	2.4 µM
Cc1cc(OCCCCCCc2c(Cl)cnn2-c2ccccc2)c2ccccc2n1	WIS HELA	crystal violet	10 µg/mL
Cc1nc(COC(=O)[C@@]2(C)CC[C@]3(C)CC[C@]4(C)C(=CC(=O)[C@@H]5[C@@]6(C)CC[C@H](O)C(C)(C)[C@@H]6CC[C@]54C)[C@@H]3C2)cs1	HepG2.2.15	-	37.17 µM
CCOc1ccccc1CNC(=O)NCCc1ccc2c(n1)NCCC2	PBMC	-	50 µM
CN(C)C(=O)C(=O)N(C)C1CN(CCc2ccccc2)CCn2c1nc(C(=O)NCc1ccc(F)cc1)c(O)c2=O	MT-4	microscopy	>1 µM
CC1(C(=O)NCCOCCOCCN2C(=O)C=CC2=O)CC(C)(C(=O)NCCOCCOCCN2C(=O)C=CC2=O)CC(C)(C(=O)NCCOCCOCCN2C(=O)C=CC2=O)C1	PM1 (PHA stimulated)	-	1 µM
C/C(=N\NC(=O)c1ccc(Cl)cc1)c1cccc(/C(C)=N/NC(=O)c2ccc(Cl)cc2)n1	HL-60	MTT	1.78 µM
CN1CCn2c(nc(C(=O)NCc3ccc(F)cc3)c(O)c2=O)C(N(C)S(=O)(=O)N(C)C)C1	MT-4	microscopy	>1 µM
CC1(C)[C@@H](O)CC[C@]2(C)[C@H]3CC=C4[C@@H]5C[C@@](C)(C(=O)O)CC[C@]5(C)CC[C@@]4(C)[C@]3(C)CC[C@@H]12	HepG2.2.15	-	162 µM
CC1c2nc(C(=O)NCc3ccc(F)cc3)c(O)c(=O)n2CCN1Cc1cocn1	MT-4	microscopy	>1 µM
O=C(CCC(=O)N1CCCN(C(=O)CCC(=O)NCCOCCOCCN2C(=O)C=CC2=O)CCCN(C(=O)CCC(=O)NCCOCCOCCN2C(=O)C=CC2=O)CCC1)NCCOCCOCCN1C(=O)C=CC1=O	PM1 (PHA stimulated)	-	2.5 µM
O=C(NCCc1ccc2c(n1)NCCC2)Nc1ccnn1-c1ccccc1	PBMC	-	2.6 µM
CN(C)C(=O)CN1CCn2c(nc(C(=O)NCc3ccc(F)cc3)c(O)c2=O)C1(C)C	MT-4	microscopy	>10 µM
Cc1cc(OCCCc2ccns2)c2ccccc2n1	WIS HELA	crystal violet	50 µg/mL
CC1(C)[C@@H](O)CC[C@]2(C)[C@H]3C(=O)C=C4[C@@H]5C[C@@](C)(C(=O)OCc6ccccc6)CC[C@]5(C)CC[C@@]4(C)[C@]3(C)CC[C@@H]12	HepG2.2.15	-	2010 µM
Cc1cc(NCCN2CCOCC2)c2ccc3c(ccc4c(NCCN5CCOCC5)cc(C)nc43)c2n1	Macrophage line RAW 264.7	MTT	0.00612 µM
CC1(C)c2nc(C(=O)NCc3ccc(F)cc3)c(O)c(=O)n2CCN1Cc1ccccc1	MT-4	microscopy	>1 µM
O=C(Cc1cccc(C(F)(F)F)c1)NCCc1ccc2c(n1)NCCC2	PBMC	-	5.2 µM
COC(=O)[C@@]1(C)CC[C@]2(C)CC[C@]3(C)C(=CC(=O)C4[C@@]5(C)CC[C@H](O)C(C)(C)C5CC[C@]43C)C2C1	HepG2.2.15	-	>1740 µM
Nc1nc2c(ncn2COC(CO)CO)c(=O)[nH]1	P3HR-1	cell count	>700 µM
CCOC(=O)CCCCCOC(=O)[C@@]1(C)CC[C@]2(C)CC[C@]3(C)C(=CC(=O)[C@@H]4[C@@]5(C)CC[C@H](O)C(C)(C)[C@@H]5CC[C@]43C)[C@@H]2C1	HepG2.2.15	-	54.74 µM
CS(=O)(=O)C1(c2ccc(C(=O)NC34CC(c5nc(-c6ccccc6Cl)cs5)(C3)C4)o2)CC1	Primary human hepatocytes	absorbance	8.85 µM
Nc1nc(=O)n([C@H]2C[C@H](O)[C@@H](CO)O2)cc1/C=C/Cl	P3HR-1	cell count	490 µM
CC1(C(=O)NCCN2C(=O)C=CC2=O)CC(C)(C(=O)NCCN2C(=O)C=CC2=O)CC(C)(C(=O)NCCN2C(=O)C=CC2=O)C1	PM1 (PHA stimulated)	-	0.79 µM
CS(=O)(=O)C1(c2nsc(C(=O)NC34CC(c5nc(-c6ccc(Cl)cc6)no5)(C3)C4)n2)CC1	Primary human hepatocytes	absorbance	181.5 µM
CC(C)Oc1ccc(S(=O)(=O)NCCc2ccc3c(n2)NCCC3)cc1	PBMC	-	50 µM
CC1(C)[C@@H](O)CC[C@]2(C)[C@H]3C(=O)C=C4[C@@H]5C[C@@](C)(C(=O)OCC6CCOCC6)CC[C@]5(C)CC[C@@]4(C)[C@]3(C)CC[C@@H]12	HepG2.2.15	-	>1910 µM
CS(=O)(=O)C1(c2nsc(C(=O)NC34CC(c5noc(-c6ccc(Cl)cc6)n5)(C3)C4)n2)CC1	Primary human hepatocytes	absorbance	65.54 µM
C[C@]12OC[C@@]1(n1ccc(=O)[nH]c1=O)O[C@H](CO)[C@H]2O	Zluc	resazurin	>100 µM
NC1=NC2C(C=CN2CC(CO)CCO)C(=O)N1	RF	cell count	>200 µM
Cc1cc(CCCCCCCOc2ccc(N3CCNC3)cc2)on1	WIS HELA	crystal violet	10 µg/mL
CS(=O)(=O)C1(c2ncc(C(=O)NC34CC(c5nc(-c6ccc(Cl)cc6)cs5)(C3)C4)o2)CC1	Primary human hepatocytes	absorbance	81.63 µM
O=C1N=C(N2CCOCC2)S/C1=C\c1ccc(-c2ccc(C(=O)O)c(O)c2)o1	HT-29	MTT	2.3 µM
CCN(C(=O)C(=O)N(C)C)C1CN(C)CCn2c1nc(C(=O)NCc1ccc(F)c(C)c1)c(O)c2=O	MT-4	microscopy	>1 µM
O=c1[nH]c(=O)n([C@@H]2O[C@H](CO)[C@@H](O)[C@@H]2O)cc1/C=C/Br	P3HR-1	cell count	>500 µM

A second listing of 5 rows from above:

{"smiles": "Cc1nc(COC(=O)[C@@]2(C)CC[C@]3(C)CC[C@]4(C)C(=CC(=O)[C@@H]5[C@@]6(C)CC[C@H](O)C(C)(C)[C@@H]6CC[C@]54C)[C@@H]3C2)cs1", "cell line": "HepG2.2.15", "result": "37.17 µM"}
{"smiles": "CS(=O)(=O)C1(c2nsc(C(=O)NC34CC(c5nc(-c6ccc(Cl)cc6)no5)(C3)C4)n2)CC1", "cell line": "Primary human hepatocytes", "method": "absorbance", "result": "181.5 µM"}
{"smiles": "CN(C)C(=O)CN1CCn2c(nc(C(=O)NCc3ccc(F)cc3)c(O)c2=O)C1(C)C", "cell line": "MT-4", "method": "microscopy", "result": ">10 µM"}
{"smiles": "CCOC(=O)CCCCCOC(=O)[C@@]1(C)CC[C@]2(C)CC[C@]3(C)C(=CC(=O)[C@@H]4[C@@]5(C)CC[C@H](O)C(C)(C)[C@@H]5CC[C@]43C)[C@@H]2C1", "cell line": "HepG2.2.15", "result": "54.74 µM"}
{"smiles": "C[C@]12OC[C@@]1(n1ccc(=O)[nH]c1=O)O[C@H](CO)[C@H]2O", "cell line": "Zluc", "method": "resazurin", "result": ">100 µM"}